# Human monoclonal antibodies against the spike receptor-binding domain (heavy:light variable regions). IC50 against pseudoviruses bearing the spike of naturally observed variants; lower = stronger; >10 µg/ml means not reached at the top dose. No active / inactive call. The stated detection limit is 0.0005 µg/ml; values near or below 0.001 µg/ml lie at the floor of the assay.
# B1: BD55-5361 (protein)
# chain 1: EVQLVESGGGLVQPGGSLRLSCAASGFTFSSFDMHWVRQTTGKGLEWVSTIGTSGDTYYADSVKGRFTISRENAKNSLFLQMNSLRAGDTAVYYCARANYVGLTSYHDFWGQGTLVTVSS
# chain 2: DIQMTQSPSSLSASVGDRVTITCRASQYISSYLNWYQQKPGKEPKLLIFAASTLQSGVPSRFSGGRSGTDFTLTISSLQPEDFATYYCQQTYVSPQFTFGQGTRLDIK
# B2: BD55-5305 (protein)
# chain 1: QVQLVQPGSELRKPGASVKVSCKASGYSFSDFAMNWVRQAPGQGLEWMGWINTKNGDPTYAPGFTGRFVFSLDTSVSTTYLQITSLKAEDTAVYFCARDFGYYAAGSYFDYWGQGTLVSVSS
# chain 2: QSVLTQPPSVSAAPGQMVTISCSGRSSIIETNYVSWYQQLPGTAPKLLIYDNYKRPSGIPDRFSVSKSGTSATLAITGLQTGDEADYYCGAWDSSLNAWVFGGGTKLTVL
# B3: BD55-1038 (protein)
# chain 1: EVQLLESGGGLVQPGGSLRLSCAASGFTFSDYAMSWVRQAPGKALDWVAAISGDGGLRFYADSVKGRFTISRENSKSSVYLQMSGLKAEDTAIYYCVRESVWEPVGPNWFDPWGQGTLVIVSS
# chain 2: DIQMTQSPSSLSAYVGDRVTITCRASQSIGNYLNWYQQKPGKAPKLLIYAASSLQSGVPVRFSGSGSGRDFTLTISGLQPEDFASYYCQQSYEAPPWTFGQGTKVEIK
# B4: BD55-5339 (protein)
# chain 1: EVQLVESGEGLVQPGGSLRISCAASGFTFSNYPMHWVRQAPGQGLESVSSITSNGDGTFYANSVKGRFTISRDNSKNTLYLQMGSLRTEDTALYFCAREVAEQLDCYFDLWGRGTLVTVSS
# chain 2: DIQMTQSPSSLSASVGDRVTITCRASQSIRTYLNWYQHKPGKAPKLLIFAASSLQSGVPSRFSGSGSGTDFSLTISSLQPEDFATYYCQQSYITPPITFGQGTRLEIK
# B5: BD55-5319 (protein)
# chain 1: QVQLVQSGAEVKRPGASVKVSCKASENTFTTYAIHWVRQAPGQGLEWLGSINAGNGDTKHSQKFQGRVTISRDTSASTVYMDLSSLRSEDTAVYYCARARIVDAGMATFHHYFGIDVWGLGTTVTVSS
# chain 2: SYELTQPPSVSVSPGQTATITCSGDALPKQYAYWYQQKSGQAPVLLIYKDTERPSGIPERFSGSSSGTTVTLTISGVQAEDEADYYCQSADASTTYIIFGGRTKLTVL
# B6: BD55-5303 (protein)
# chain 1: QVHLVQSGSELKKPGASVKVSCKASGYSFTDYPMNWVRQAPGQGLEWMGWINTNTGHPTYAQGFTGRFVFSLDTSVSTAYLQINSLKPEDTATYYCSRIAGTWWGEGKNWFDPWGQGTLVTVSS
# chain 2: DIVMTQSPDSLAVSLGERATINCKSSHSVFSSPDNQNYLAWYQQKPGQPPELLIYWAFTRESGVPDRFSGSGSGTDFTLTISSLQAEDVAVYYCQQYYSSPLTFGGGTKVEIK
# Tests used:
# Experiment in all cases: pseudovirus neutralization IC50; higher = weaker neutralization
# [1] = target: SARS-CoV-2 Omicron BA.1 spike pseudovirus
# Procedure: (§1)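 Single-round VSV luciferase pseudovirus mixed with antibody dilutions for 1 h and put on Huh-7 cells for about a day; IC50 from the dose curve.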
# [2] = target: SARS-CoV-2 Omicron BA.2 spike pseudovirus
# Procedure: as §1
# [3] = target: SARS-CoV-2 Omicron BA.2.75 spike pseudovirus
# Procedure: as §1
# [4] = target: SARS-CoV-2 Omicron BA.5 spike pseudovirus
# Procedure: as §1
# [5] = target: SARS-CoV-2 Omicron BQ.1.1 spike pseudovirus
# Procedure: as §1
# [6] = target: SARS-CoV-2 Omicron XBB spike pseudovirus
# Procedure: as §1
# [7] = target: SARS-CoV-2 early D614G spike pseudovirus
# Procedure: as §1
Binder,pseudovirus neutralization IC50 [1],pseudovirus neutralization IC50 [2],pseudovirus neutralization IC50 [3],pseudovirus neutralization IC50 [4],pseudovirus neutralization IC50 [5],pseudovirus neutralization IC50 [6],pseudovirus neutralization IC50 [7]
B1,> 10 µg/mL,> 10 µg/mL,> 10 µg/mL,> 10 µg/mL,> 10 µg/mL,> 10 µg/mL,2.39 µg/mL
B2,> 10 µg/mL,> 10 µg/mL,> 10 µg/mL,> 10 µg/mL,> 10 µg/mL,> 10 µg/mL,1 µg/mL
B3,4.4 µg/mL,> 10 µg/mL,> 10 µg/mL,> 10 µg/mL,> 10 µg/mL,> 10 µg/mL,> 10 µg/mL
B4,> 10 µg/mL,> 10 µg/mL,> 10 µg/mL,> 10 µg/mL,> 10 µg/mL,> 10 µg/mL,0.152 µg/mL
B5,0.159 µg/mL,0.367 µg/mL,1.22 µg/mL,1.09 µg/mL,> 10 µg/mL,> 10 µg/mL,0.015 µg/mL
B6,2.19 µg/mL,5.65 µg/mL,> 10 µg/mL,3.34 µg/mL,> 10 µg/mL,> 10 µg/mL,0.0013 µg/mL

# Source: the supplement of paper PMC9931576
